Anti-infective test results gathered from many reports (values: NIAID ChemDB through PubChem).

All rows: whole-cell or culture tests; agent: Aspergillus niger; endpoint: MIC

Blank or dashed fields: not listed here. Neighbouring rows are from separate reports.

structure | strain or isolate | read by | result
CCOC(=O)C1/C(=N/Nc2ccc([N+](=O)[O-])cc2[N+](=O)[O-])C=C(c2ccc3ccccc3c2)CC1c1ccc(Cl)cc1 | Clinical isolates |  | 6.25 µg/mL
O=C(O)c1ccccc1-c1nc2ccccc2n1C(=O)c1ccc([N+](=O)[O-])cc1 |  |  | 16 µg/mL
C[C@H]1[C@H](O)[C@@H](C)/C=C/C=C/C=C/C=C/C=C/C=C/C=C/[C@H](O[C@@H]2O[C@H](C)[C@@H](O)[C@H](N)[C@@H]2O)C[C@@H]2O[C@](O)(C[C@@H](O)C[C@@H](O)CC[C@H](O)[C@@H](O)C[C@@H](O)CC(=O)O[C@H]1C)C[C@H](O)[C@H]2C(=O)O |  | broth dilution / visual reading | 125 µg/mL
O=C(c1ccccc1Br)n1c(-c2ccc([N+](=O)[O-])cc2)nc2ccccc21 |  |  | 15 µg/mL
CCCCCCCCCCCCCC(=O)NC(CCCN)C(N)=O | ATCC 64028 | broth dilution | >100 µg/mL
Cc1nc2c(s1)C(=O)C(Nc1ccc(Cl)cc1)=C(Cl)C2=O | KCTC 1231 | broth dilution | 25 µg/mL
c1ccc(-c2n[nH]c(CN3CCc4sccc4C3)n2)cc1 | NCIM 1196 | agar | >200 µg/mL
Cc1nn(-c2ccccc2)c2c1C(c1cccc(Br)c1)c1c(nc(=S)[nH]c1N)O2 | MTCC 282 |  | 500 µg/mL
CCCCCCCCCCCCCCCC(=O)NC(CCCN)C(=O)NC(CCCN)C(N)=O | ATCC 64028 | broth dilution | 12.5 µg/mL
CCOC(=O)c1c(N)oc2ccc(O)cc12 | KCTC 1231 | broth dilution | 25 µg/mL
COC(=O)c1c(N)oc2c1cc(O)c1sc(C)nc12 | KCTC 1231 | broth dilution | 100 µg/mL
O=C(c1ccccc1Br)n1c(-c2ccc(O)cc2)nc2ccccc21 |  |  | 32 µg/mL
Clc1ccccc1-c1n[nH]c(CN2CCc3sccc3C2)n1 | NCIM 1196 | agar | 150 µg/mL
COC(=O)C1CC(=O)N(c2cccc(OC3=C(Cl)C(=O)c4ccccc4C3=O)c2)C1 | VCM F-1119 |  | 7.8 µg/mL
CCOC(=O)C1/C(=N/Nc2ccc([N+](=O)[O-])cc2[N+](=O)[O-])C=C(c2ccc3ccccc3c2)CC1c1ccc(C)cc1 | Clinical isolates |  | 25 µg/mL
O=C1C(Cl)=C(Oc2cccc(N3CC(C(=O)N/N=C/c4ccc(Br)cc4)CC3=O)c2)C(=O)c2ccccc21 | VCM F-1119 |  | 3.9 µg/mL
Cc1nn(-c2ccccc2)c2c1C(c1ccccc1Cl)C(C#N)=C(N)O2 | MTCC 282 |  | >1000 µg/mL
CCOC(=O)c1c(N)oc2c(C)cc(O)c(C)c12 | KCTC 1231 | broth dilution | 25 µg/mL
Cc1ccc(C2c3c(nc(=S)[nH]c3N)Oc3c2c(C)nn3-c2ccccc2)cc1 | MTCC 282 |  | >1000 µg/mL
Cc1nc2c(s1)C(=O)C(Nc1ccccc1)=C(Cl)C2=O | KCTC 1231 | broth dilution | 25 µg/mL
c1ccc(Cc2nc(CN3CCc4sccc4C3)n[nH]2)cc1 | NCIM 1196 | agar | >200 µg/mL
C[C@H]1[C@H](O)[C@@H](C)/C=C/C=C/C=C/C=C/C=C/C=C/C=C/[C@H](O[C@@H]2O[C@H](C)[C@@H](O)[C@H](N)[C@@H]2O)C[C@@H]2O[C@](O)(C[C@@H](O)C[C@@H](O)CC[C@H](O)[C@@H](O)C[C@@H](O)CC(=O)O[C@H]1C)C[C@H](O)[C@H]2C(=O)O | 64028 | broth dilution | 0.015 µg/mL
CCOC(=O)C1/C(=N/Nc2ccc([N+](=O)[O-])cc2[N+](=O)[O-])C=C(c2ccc3ccccc3c2)CC1c1ccc([N+](=O)[O-])cc1 | Clinical isolates |  | 50 µg/mL
Cc1nn(-c2ccccc2)c2c1C(c1cccc([N+](=O)[O-])c1)c1c(nc(=O)[nH]c1N)O2 | MTCC 282 |  | 500 µg/mL
CCOC(=O)/C=C(/C)n1c2c(=O)c3ccccc3c(=O)c=2oc2ccccc21 | VKM F-1119 |  | 250 µg/mL
COc1ccc(C2c3c(nc(=O)[nH]c3N)Oc3c2c(C)nn3-c2ccccc2)cc1 | MTCC 282 |  | 250 µg/mL
C[C@H]1N(C(=O)c2ccc(C(F)(F)F)cc2)CCO[C@@]1(Cn1cncn1)c1ccc(F)cc1F | Isolate 1 |  | >64 µg/mL
O=C(c1ccc([N+](=O)[O-])cc1)n1c(-c2ccccc2)nc2ccccc21 |  |  | 18 µg/mL
CCCCCCCCCCCCCC(=O)NC(CCCN)C(=O)NC(CCCN)C(N)=O | ATCC 64028 | broth dilution | 25 µg/mL
Clc1ccc(-c2n[nH]c(CN3CCc4sccc4C3)n2)cc1 | NCIM 1196 | agar | 100 µg/mL
C/C(=N\NC(=S)Nc1cccc([N+](=O)[O-])c1)c1c(O)ccc2c(C)cc(=O)oc12 |  |  | 10 µg/mL
CCOC(=O)/C=C(/C)n1c2c(=O)c3ccccc3c(=O)c=2oc2ccc(C)cc21 | VKM F-1119 |  | 500 µg/mL
C=C(C(=O)O[C@H]1C[C@]2(C)[C@H]([C@@H](CO)CC[C@H]2O)[C@@H](O)[C@@H]1C(=C)C(=O)OC)C(O)COC(C)=O | ATCC 6275 |  | 1 µg/mL
CCCCCCCCCCCCCCCCCC(=O)NC(CCCN)C(=O)NC(CCCN)C(=O)NC(CCCN)C(=O)NC(CCCN)C(=O)NC(CCCN)C(N)=O | ATCC 64028 | broth dilution | 1.5 µg/mL
Cc1nn(-c2ccccc2)c2c1C(c1ccc(O)cc1)C(C#N)=C(N)O2 | MTCC 282 |  | 1000 µg/mL
CCOC(=O)c1c(N)oc2c1cc(O)c1sc(C)nc12 | KCTC 1231 | broth dilution | 100 µg/mL
CCCCCCCCCCCCCCCCCC(=O)NC(CCCN)C(=O)NC(CCCN)C(N)=O | ATCC 64028 | broth dilution | 12.5 µg/mL
COc1ccccc1Nc1nc2c(sc(=S)n2-c2ccccc2)c(=O)n1-c1ccccc1OC | MTCC 282 | broth dilution | 0.8 µg/mL
CCOC(=O)C1/C(=N/Nc2ccc([N+](=O)[O-])cc2[N+](=O)[O-])C=C(c2ccc3ccccc3c2)CC1c1ccc(OC)cc1 | Clinical isolates |  | 12.5 µg/mL
Cc1nc2c(s1)C(=O)C(Nc1ccc(Br)cc1)=C(Cl)C2=O | KCTC 1231 | broth dilution | 6.3 µg/mL
C=C1C(=O)O[C@@H]2/C=C(\CO)CCC=C(C)C[C@H](OC(=O)/C(=C/COC(C)=O)CO)[C@@H]12 | ATCC 6275 |  | 0.03 µg/mL
CCCCCCCCCCCCCCCCCC(=O)NC(CCCN)C(=O)NC(CCCN)C(=O)NC(CCCN)C(=O)NC(CCCN)C(N)=O | ATCC 64028 | broth dilution | 1.5 µg/mL
O=C(c1ccc([N+](=O)[O-])cc1)n1c(-c2cccc(Cl)c2)nc2ccccc21 |  |  | 33 µg/mL
CC(=O)CC(C)n1c2c(=O)c3ccccc3c(=O)c=2oc2ccc(Cl)cc21 | VKM F-1119 |  | 31.2 µg/mL
C=C[C@]1(C)C[C@H](OC(=O)C(=C)C(O)CO)[C@H]2C(=C)C(=O)O[C@@H]2[C@H]1C(=C)CO | ATCC 6275 |  | 0.25 µg/mL
Cc1nc2c(s1)C(=O)C(Nc1ccc(C#N)cc1)=C(Cl)C2=O | KCTC 1231 | broth dilution | 3.2 µg/mL
O=C(c1ccc([N+](=O)[O-])cc1)n1c(-c2ccc(Cl)cc2)nc2ccccc21 |  |  | 17 µg/mL
c1ccc(C(c2ccccc2)c2n[nH]c(CN3CCc4sccc4C3)n2)cc1 | NCIM 1196 | agar | >200 µg/mL
O=C(c1ccccc1Br)n1c(-c2ccccc2[N+](=O)[O-])nc2ccccc21 |  |  | 30 µg/mL
Cc1nc2c(s1)C(=O)C(Nc1cccc(F)c1)=C(Cl)C2=O | KCTC 1231 | broth dilution | 6.3 µg/mL
Cc1nn(-c2ccccc2)c2c1C(c1ccc(Cl)cc1)C(C#N)=C(N)O2 | MTCC 282 |  | >1000 µg/mL

Again, the opening 5 rows:

structure,strain or isolate,read by,result
CCOC(=O)C1/C(=N/Nc2ccc([N+](=O)[O-])cc2[N+](=O)[O-])C=C(c2ccc3ccccc3c2)CC1c1ccc(Cl)cc1,Clinical isolates,,6.25 µg/mL
O=C(O)c1ccccc1-c1nc2ccccc2n1C(=O)c1ccc([N+](=O)[O-])cc1,,,16 µg/mL
C[C@H]1[C@H](O)[C@@H](C)/C=C/C=C/C=C/C=C/C=C/C=C/C=C/[C@H](O[C@@H]2O[C@H](C)[C@@H](O)[C@H](N)[C@@H]2O)C[C@@H]2O[C@](O)(C[C@@H](O)C[C@@H](O)CC[C@H](O)[C@@H](O)C[C@@H](O)CC(=O)O[C@H]1C)C[C@H](O)[C@H]2C(=O)O,,broth dilution / visual reading,125 µg/mL
O=C(c1ccccc1Br)n1c(-c2ccc([N+](=O)[O-])cc2)nc2ccccc21,,,15 µg/mL
CCCCCCCCCCCCCC(=O)NC(CCCN)C(N)=O,ATCC 64028,broth dilution,>100 µg/mL